Measured values: article PMC11098500
Where “and” joins values, the source holds several entries; their conditions need not be identical. Equal values may be shown once.

Biological target: human ACE2 ectodomain (residues 1-615), Fc-tagged (human) (UniProt Q9BYF1)
Experiment: SPR

Question: Which results are given for “SARS-CoV-2 RBD (prototypic strain, residues 319-529), His-tagged (from UniProt P0DTC2 319-529) (domain or fragment; other documents disagree on this pair)”?
Answer: Kd: 36.9 nM and 26.5 nM and 31.7 nM; koff: 0.0151 s⁻¹ and 0.0123 s⁻¹ and 0.0274 s⁻¹; kon: 410000 M⁻¹ s⁻¹ and 463000 M⁻¹ s⁻¹ and 864000 M⁻¹ s⁻¹
